Reference: US10287311B2, “Modified fluorinated nucleoside analogues” (priority 2003, dated 2019)

Assays:
HCV-WT 1b replicon = test: microbe, parasite or virus in culture; settings: Hepatitis C virus
[1] = system: 21-5 (full-length) replicon; test: microbe, parasite or virus in culture; settings: Hepatitis C virus
[2] = system: 9-13 (subgenomic) replicon; test: microbe, parasite or virus in culture; settings: Hepatitis C virus
replicon HCV RNA = test: HCV replicon assay (clone not specified); settings: for reduction in replicon HCV RNA up to 7 days: treatment with 5 and 25 μM, FIG. 1B

C[C@@]1(O)[C@H](O)[C@@H](CO)O[C@H]1n1cnc2c(N)ncnc21 [2′-C-methyladenosine]
EC90 (HCV-WT 1b replicon): 2.1 ± 0.27 µM
EC90 [1]: 0.6 µM
EC90 [2]: 0.7 µM

C[C@@]1(F)[C@H](O)[C@@H](CO)O[C@H]1n1ccc(N)nc1=O
EC90 (HCV-WT 1b replicon): 4.6 ± 2 µM
EC90 [1]: 1.6 ± 0.7 µM
EC90 (replicon HCV RNA; Hepatitis C virus, read-out: average EC90 value, corrected for cellular toxicity, rRNA reduction subtracted from antiviral values): ~2.5 µM
reduction in replicon HCV RNA up to 7 days (replicon HCV RNA): prolonged reduction
reduction in replicon HCV RNA up to 7 days (replicon HCV RNA; listed as β-D-(2′R)-2′-deoxy-2′-fluoro-2′-C-methylcytidine): significantly reduced
EC90 [2]: 4.6 ± 2.3 µM

C[C@@]1(O)[C@H](O)[C@@H](CO)O[C@H]1n1ccc(N)nc1=O [2′-C-methylcytidine]
EC90 (HCV-WT 1b replicon): 21.9 ± 4.3 µM
EC90 [1]: 6.6 µM
EC90 [2]: 13 µM
